Experimental data: PubChem BioAssay AID504761 (Drosophila RNAi Screening Center, 2011)

Assay: 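Insect host genes that dengue virus relies on to spread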 (primary screen)
System: D.Mel-2 cells from Drosophila
Reagents: long dsRNA against Drosophila genes
Conditions: infection with dengue virus type 2; dose and infection time not stated
Read-out: 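Cells stained for dengue envelope protein and imaged; percent of infected cells per well on duplicate plates, ranked by infection, with stained nuclei counted for cell number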
Direction: infection score: higher = more virus-infected cells
Active means: 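Low infection ranks in the two replicates (chance level up to 0.065) followed by a retest with a 1.5-fold or larger significant decrease, p below 0.05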
Meaning of the calls: active = confirmed: knock-down lowers infection; inactive = not picked or not confirmed
The screen tested about 22,000 reagents; this is an unselected part of those that have a named target and a result. Over the whole deposit, 116 (0.52%) are marked active. 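Calls depend on retest data that are not deposited; infection was ranked per plate without normalising between plates; the unit of the infection score is not given.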 Unmarked entries are inactive. The numbers tell different reagents against one gene apart. Names joined by + are all predicted targets of the reagent. Not all columns of the deposit are shown. Not stated in the record: the amount of reagent, the time to read-out.

no.	gene	reagent	infection score, replicate 1	infection score, replicate 2
1	ETH	1	4.56	18.1
2	Art4	1	1.3	4.97
3	Obp18a	1	4.81	2.76
4	Pc	1	3.85	5.11
5	Gem4b + Gem4c	1	3.72	6.28
6	gce	1	15.3	9.84
7	gce	2	17.9	17.1
8	gce	3	1.58	2.04
9	gce	4	5	2.53
10	Cyp6a17	1	24	29.2
11	Nxf3	1	24.8	4.68
12	NHP2	1	1.1	4.17
13	NHP2	2	2.09	3.06
14	CG14507	1	2.58	4.95
15	CG14507	2	11.1	4.99
16	CG15172	1	8.67	5.82
17	CG15172	2	8.97	16.5
18	Cpr51A	1	1.95	12.5
19	CG3216	1	2.57	9.01
20	CG3216	2	2.59	3.22
21	CG2336	1	7.44	13
22	Su(var)3-7	1	2.95	13.2
23	NimC2	1	11.5	
24	COX7AL	1	6.62	7.42
25	COX7AL	2	1.35	1.83
26	Rgl	1	0.65	2.99
27	CG34174	1	2.57	0.42
28	I-t	1	2.34	3.84
29	CG2186	1	10.3	4.01
30	CG2186	2	4.76	8.15
31	Sox21a	1	1.25	2.78
32	Sox21a	2	4.68	4.96

5 successive entries from above, for reference:
no.	gene	reagent	infection score, replicate 1	infection score, replicate 2
1	ETH	1	4.56	18.1
2	Art4	1	1.3	4.97
3	Obp18a	1	4.81	2.76
4	Pc	1	3.85	5.11
5	Gem4b + Gem4c	1	3.72	6.28

More records follow.
no.	gene	reagent	infection score, replicate 1	infection score, replicate 2
33	CG32391	1	4.08	0.68
34	CG17764	1	1.29	4.28
35	CG12177	1	16.3	8.67
36	CG12177	2	2.07	3.59
37	CG12177	3		18.5
38	CG2747	1	3.57	6.81
39	Usp5	1	1.15	5.56
40	Usp5	2	4.22	10.7
41	CG32302	1	5.12	1.06
42	Sk2	1	3.98	5.06
43	CG18294 + 825-Oak + CG32214 + 2 more	1	2.05	9.51
44	CG10730	1	4.79	7.21
45	CG10730	2	1.17	2.82
46	GATAd	1	3.77	3.46
47	RpS16	1	46.1	34.5
48	RpS16	2	26.1	16.3
49	Ythdc1	1	6.03	9.12
50	CG10651	1	7.35	5.48
51	bon	1	2.02	1.23
52	CG18528	1	0.74	5.31
53	kmg	1	7.52	12
54	Spn28B	1	2.99	7.09
55	Sin3A	1	16.4	11
56	CG31207	1	7.47	16.7
57	Agpat3	1	2.77	5.05
58	CG31845 (retired record)	1	0.98	3.06
